Reference: article PMC3228729, “Localization of ASV Integrase-DNA Contacts by Site-Directed Crosslinking and their Structural Analysis”
The exact form of at least one protein or probe is not confirmed. The direction of at least one scale is not stated here. Protein sequences can lack the tags named with them.

Target: T1, ASV integrase WT (avian sarcoma virus) (UniProt P03354)
T1 sequence (looked up, limits assumed): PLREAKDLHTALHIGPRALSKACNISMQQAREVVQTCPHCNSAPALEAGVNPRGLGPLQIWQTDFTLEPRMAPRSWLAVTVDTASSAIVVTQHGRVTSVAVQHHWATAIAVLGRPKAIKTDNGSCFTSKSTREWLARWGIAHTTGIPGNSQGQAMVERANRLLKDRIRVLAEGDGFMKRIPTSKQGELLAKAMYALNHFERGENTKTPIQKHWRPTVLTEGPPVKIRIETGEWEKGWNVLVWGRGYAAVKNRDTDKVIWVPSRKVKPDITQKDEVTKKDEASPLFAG
Test: photocrosslinking
Settings: DNA-borne diazirine; 5-aminouridine replacing T8 of strand 3, carrying aryl diazirine; Photocrosslinking: 40 mM HEPES pH 6.5, 150 mM NaCl, 5% glycerol, 0 C, 10 uM IN, 0.05 uM DNA; disulfide: Buffer 1 adjusted to 250-300 mM NaCl, pH 7.5, on ice; recombinant protein; label: 32P

“AATGTAGTCTTATGCAATACTC (double strand) [NH2-3.8 linear]” was tested, and the binding signal (fraction of NH2-3.11 crosslinking) was less than 0.5.
